Compound potency records, mixed from different reports. Data source: NIAID ChemDB in PubChem.

All rows: tests in culture; organism: Mycobacterium tuberculosis

Neighbouring rows are from separate reports. ECn: concentration that inhibits the pathogen or its effect by n%. MIC bound comes from a single tested concentration. An empty or dashed field is not shown. Inhibition is in % at the dose shown (toxicity tests: loss of growth or viability). A number after MIC or MFC names an inhibition level or a share of isolates. Two numbers with a dash give a range or band.

compound,strain or isolate,changes,cells,method,setting,endpoint,dose,result
Cc1ccnc(NS(=O)(=O)c2ccc(NC(=O)Nc3ccc(Cl)c(C(F)(F)F)c3)cc2)n1,H37Rv,,,BACTEC,,inhibition,12.5 µg/mL,0%
COC1=C(\Br)CC2(OC/C=C\1Br)ON=C(C(=O)NCCCOc1c(Br)cc(CCN)cc1Br)[C@@H]2O,,,,,,MIC,,30 µg/mL
N[C@@H]1CONC1=O,35 strains,,,agar,,EC50,,<20 µg/mL
Nc1ccc2c(-c3ccccc3)cc(N3CCCCC3)nc2n1,H37Rv,,,,,inhibition,6.25 µg/mL,91%
COc1c(N2CC/C(=N/OCc3ccc4c(c3)OCCO4)C(N)C2)c(F)cc2c(=O)c(C(=O)O)cn(C3CC3)c12,H37Rv,,,resazurin,,MIC,,8 µg/mL
O=C(NNCc1ccc(F)cc1)c1ccncc1,Erdman,,Macrophages,colony count,inside macrophages,EC90,,0.014 µg/mL
COc1cccc(CO/N=C2/CCN(c3c(F)cc4c(=O)c(C(=O)O)cn(C5CC5)c4c3OC)CC2N)c1,H37Rv,,,resazurin,,MIC,,4 µg/mL
CC1=C2Cc3cc(ccc3O)C(=O)O[C@H]3CC[C@@](C)(OC3(C)C)[C@H](Br)CC[C@]2(C)[C@@H](Br)CC1,,,,,,MIC,,22 µM
c1ccc(-c2cc3ccc(N4CCCCC4)nc3nc2N2CCCCC2)cc1,H37Rv,,VERO,,,inhibition,6.25 µg/mL,99%
CCOc1c(N=Nc2ccc(Cl)cc2Cl)c(C)nn1C(=S)S,PZA-R,,,,,MIC,,12.5 µg/mL
Cc1c[nH]c2ccc([N+](=O)[O-])cc12,H37Rv,,,resazurin,,MIC90,,>100 µM
O=C1NC(=O)C2C3C(C(O)(c4ccccc4)c4ccccn4)=CC(/C3=C(\c3ccccc3)c3ccccn3)C12,H37Rv,,,,,inhibition,6.25 µg/mL,6%
COc1nc2ccc(Cl)cc2cc1C1C(Cl)C(=O)N1NC(=O)c1ccc(-n2cccc2)cc1,H37Rv,,,resazurin,,MIC,,6.25 µg/mL
Nc1ccc(C(=O)O)c(O)c1,592 strains,,,agar,,inhibition,2 µg/mL,89%
O=C(O)c1ccc(Sc2nnc(N3CCN(c4nc(N5CCN(c6ccccc6)CC5)c5ccccc5n4)CC3)o2)cc1,H37Rv,,,agar / visual reading,,inhibition,100 µg/mL,91%
COc1nc2ccc(C)cc2cc1C1C(Cl)C(=O)N1NC(=O)c1ccc(-n2cccc2)cc1,H37Rv,,,resazurin,,MIC,,6.25 µg/mL
CCCCS(=O)(=O)Nc1ccc2[nH]c(CO)c(C)c2c1,H37Rv,,,resazurin,,MIC90,,>100 µM
O=C(N/N=C/c1ccccc1F)c1ccncc1,H37Rv (ethambutol-resistant),,,,,MIC,,1 µg/mL
C=C(NC(=O)C(=C)NC(=O)c1csc(C2=N[C@@H]3c4csc(n4)[C@H]4NC(=O)c5csc(n5)[C@H]([C@](C)(O)[C@@H](C)O)NC(=O)C5CSC(=N5)/C(=C/C)NC(=O)[C@H]([C@@H](C)O)NC(=O)c5csc(n5)[C@]3(CC2)NC(=O)C(C)NC(=O)C(=C)NC(=O)C(C)NC(=O)C(C(C)CC)NC2C=Cc3c([C@H](C)O)cc(nc3[C@H]2O)C(=O)O[C@@H]4C)n1)C(N)=O,H37Rv,,,BACTEC,,inhibition,128 µg/mL,97%
CC(NNC(=O)c1ccncc1)c1ccc(F)cc1,H37Rv,,,,,MBC,,25 µg/mL
c1cc2c[n+](c1)CCCCCCCCCCCCc1ccc[n+](c1)CCCCCCCCCCCC2,H37Rv,,,,,MIC,,8 µg/mL
COc1ccc(CO/N=C2/CCN(c3c(F)cc4c(=O)c(C(=O)O)cn(C5CC5)c4c3OC)CC2N)cc1OC,H37Rv,,,resazurin,,MIC,,8 µg/mL
O=C(NNCc1ccccc1)c1ccncc1,Erdman,,Macrophages,colony count,inside macrophages,EC50,,<0.005 µg/mL
Cc1cc(=O)c2c([nH]1)c1c(c3[nH]c(C)cc(=O)c32)Oc2ccccc2O1,PZA-R,,,,,MIC,,0.8 µg/mL
CC(=O)c1ccccc1NNC(=O)N1CCN(c2nc(N3CCN(c4ccccc4)CC3)c3ccccc3n2)CC1,H37Rv,,,agar / visual reading,,inhibition,6.25 µg/mL,99%
CNC(=O)Nc1nc2ccc([N+](=O)[O-])cc2[nH]1,H37Rv,,,resazurin,,inhibition,6.25 µg/mL,1%
N#Cc1ccc(Sc2nnc(N3CCN(c4nc(N5CCN(c6ccccc6)CC5)c5ccccc5n4)CC3)o2)cc1,H37Rv,,,BACTEC / fluorescence,,MIC,,>6.25 µg/mL
c1cc2c[n+](c1)CCCCCCCCCCCCc1ccc[n+](c1)CCCCCCCCCCC2,H37Rv,,,,,MIC,,8 µg/mL
COc1nc2ccccc2cc1/C=N/NC(=O)c1ccc(-n2cccc2)cc1,H37Rv,,,resazurin,,MIC,,6.25 µg/mL
Cc1ccc(NNC(=O)N2CCN(c3nc(N4CCN(c5ccccc5)CC4)c4ccccc4n3)CC2)cc1,H37Rv,,,agar / visual reading,,MIC,,50 µg/mL
O=C1C(SCCO)=C(SCCO)C(=O)c2[nH]cnc21,H37Rv,,,BACTEC,,MIC bound,,>12.5 µg/mL
c1cc2c[n+](c1)CCCCCCCCCCCCCCc1ccc[n+](c1)CCCCCCCCCCC2,H37Rv,,,,,MIC,,8 µg/mL
O=Cc1ccc(Sc2nnc(N3CCN(c4nc(N5CCN(c6ccccc6)CC5)c5ccccc5n4)CC3)o2)cc1,H37Rv,,,BACTEC / fluorescence,,MIC,,>6.25 µg/mL
Nc1ccc(Cl)c(-c2nc3ccccc3[nH]2)c1,H37Rv,,,BACTEC,,MIC bound,,>12.5 µg/mL
O=[N+]([O-])c1cc2cc(-c3ccccc3)c(N3CCCCC3)nc2nc1N1CCCCC1,H37Rv,,,,,inhibition,6.25 µg/mL,79%
CCCCS(=O)(=O)Nc1ccc2[nH]c(C#N)c(C)c2c1,DRM167 16x3,V123A DG167-resistant,,resazurin,,MIC90,,100 µM
CC(C)c1cccc(O)c(=O)c1,H37Rv,,,BACTEC,,MIC,,64 µg/mL
COc1c(N2CC/C(=N/OCc3ccccc3)C(N)C2)c(F)cc2c(=O)c(C(=O)O)cn(C3CC3)c12,H37Rv,,,resazurin,,MIC,,4 µg/mL
CC1=NN(C(=O)c2ccncc2)C(=O)C1N=Nc1c(C)n(C)n(-c2ccccc2)c1=O,H37Rv,,,BACTEC,,MIC bound,,>12.8 µg/mL
CO/N=C1\C[C@@H](C)O[C@@H](O[C@@H]2[C@@H](C)[C@H](O[C@H]3C[C@@H](C)N(C)C[C@H](C)O3)[C@@H](C)C(=O)O[C@H]([C@@H](C)CO[C@@H]3O[C@H](C)[C@@H](O)[C@@H](OC)[C@H]3OC)[C@H](C)[C@@H](OC(=O)CC(C)C)[C@@H](C)C(=O)[C@@](C)(OC(=O)N3CCO[C@@H](C)C3)C[C@@H]2C)[C@@H]1O,H37Rv,,,resazurin,,MIC,,0.527 µM
CC(=O)CCCCn1c(=O)c2c(ncn2C)n(C)c1=O,H37Rv,,,BACTEC,,MIC bound,,>12.5 µg/mL
CCN1CCN(c2cc(-c3ccccc3)c3ccc(Cl)nc3n2)CC1,H37Rv,,,,,MIC,,>6.25 µg/mL
CO/N=C1\C[C@@H](C)O[C@@H](O[C@@H]2[C@@H](C)[C@H](O[C@H]3C[C@@H](C)N(C)C[C@H](C)O3)[C@@H](C)C(=O)O[C@H]([C@@H](C)CO[C@@H]3O[C@H](C)[C@@H](O)[C@@H](OC)[C@H]3OC)[C@H](C)[C@@H](OC(=O)CC(C)C)[C@@H](C)C(=O)[C@@](C)(OC(=O)N3CCO[C@H](C)C3)C[C@@H]2C)[C@@H]1O,H37Rv,,,resazurin,,MIC,,0.796 µM
COC(=O)Nn1c(C)c(C(=O)OC)c(C(=O)Nc2ccccc2)c1-c1ccccc1,H37Rv,,,resazurin,,inhibition,6.25 µg/mL,15%
c1ccc(-c2cc3ccc(N4CCNCC4)nc3nc2N2CCNCC2)cc1,H37Rv,,,,,MIC,,>6.25 µg/mL
C=CC(C)(C)c1[nH]c2c(CC=C(C)C)cc(CC=C(C)C)cc2c1C[C@@H]1NC(=O)[C@H](C)NC1=O,H37Ra,,,,,MIC,,170 µM
O=C(Nc1ccccc1)c1cc(-n2cnc([N+](=O)[O-])c2)ccn1,FQR-M10,,,,,MIC,,0.313 µg/mL
C=C(C)[C@@H]1CCC(C)(O)[C@H](Br)CCC2C(C)=CCC(C)=C2Cc2cc(ccc2O)C(=O)O1,,,,,,MIC,,49 µM
CCC(C)OC(=O)N1CCN(c2nc3nc(Cl)ccc3cc2-c2ccccc2)CC1,H37Rv,,,,,inhibition,6.25 µg/mL,67%
CCCCN1C(=O)N(c2ccc(OCC)cc2)C2N(CCCC)C1C(C)(C)C2(C)C,H37Rv,,,BACTEC,,MIC bound,,>12.5 µg/mL
CC(NNC(=O)c1ccncc1)c1cccc(C(F)(F)F)c1,H37Rv (ethionamide-resistant),,,,,MIC,,>31.25 µg/mL
COc1ccccc1Sc1nnc(N2CCN(c3nc(N4CCN(c5ccccc5)CC4)c4ccccc4n3)CC2)o1,H37Rv,,,agar / visual reading,,inhibition,100 µg/mL,91%
CNc1ccccc1C(=O)O[C@@H]1[C@@H](C)[C@]2(O)[C@@H]3C=C(C)C(=O)[C@H]3CC(C)=C[C@H]2[C@]2(C)C(C)(C)[C@]12OC(C)=O,,,,,,MIC,,50 µg/mL
Cc1ccc(Sc2nnc(N3CCN(c4nc(N5CCN(c6ccccc6)CC5)c5ccccc5n4)CC3)o2)cc1,H37Rv,,,agar / visual reading,,MIC,,6.25 µg/mL
COc1nc2ccccc2cc1/C=N/NC(=O)c1ccncc1,H37Rv,,,resazurin,,MIC,,6.25 µg/mL
O=C1C(Cl)=C(Nc2nccs2)C(=O)c2ccccc21,H37Rv,,,BACTEC,,MIC bound,,>12.5 µg/mL
c1cc2c[n+](c1)CCCCCCCCCCCCCCc1ccc[n+](c1)CCCCCCCCCCCC2,H37Rv,,,,,MIC,,8 µg/mL
C=C1CC[C@H](Br)[C@@]2(C)CC[C@@H](Br)[C@@]3(C)CC[C@H](OC(=O)c4ccc(O)c(c4)C[C@H]12)C(C)(C)O3,,,,,,MIC,,48 µM
CO/N=C1\C[C@@H](C)O[C@@H](O[C@@H]2[C@@H](C)[C@H](O[C@H]3C[C@@H](C)N(C4CCC4)C[C@H](C)O3)[C@@H](C)C(=O)O[C@H]([C@@H](C)CO[C@@H]3O[C@H](C)[C@@H](O)[C@@H](OC)[C@H]3OC)[C@H](C)[C@@H](OC(=O)CC(C)C)[C@@H](C)C(=O)[C@@](C)(OC(=O)N3CCO[C@@H](C)C3)C[C@@H]2C)[C@@H]1O,H37Rv,,,resazurin,,MIC,,0.652 µM
CC(C)OC(=O)NNC(=O)c1ccncc1,H37Rv,,,resazurin,,MIC bound,,<6.25 µg/mL
c1ccc(-c2cc(N3CCN(c4ccccc4)CC3)nc3nc(N4CCN(c5ccccc5)CC4)ccc23)cc1,H37Rv,,,,,inhibition,6.25 µg/mL,47%
CCc1cc(C(N)=S)ccn1,592 strains,,,agar,,EC50,,<5 µg/mL
O=[N+]([O-])c1cccc(Sc2nnc(N3CCN(c4nc(N5CCN(c6ccccc6)CC5)c5ccccc5n4)CC3)o2)c1,H37Rv,,,agar / visual reading,,inhibition,25 µg/mL,93%
[O-]c1ccccc1N=Nc1ccccc1[O-].[O]=[V+2],H37Rv,,,BACTEC,,MIC bound,,≤128 µg/mL
N#C[B][n+]1ccc(C(=O)NNCc2cccc(F)c2)cc1,H37Rv,,,,,MIC,,0.8 µg/mL
CC[C@@H](C)[C@@H]1NC(=O)[C@@H](Cc2ccccc2)CC(=O)CN(C)C(=O)[C@H]([C@H](C)CC)NC(=O)[C@@H](Cc2ccccc2)OC(=O)CN(C)C1=O,,,,,,MIC,,6–12 µg/mL
O=C(N1CCN(c2ccccc2)C1=O)N1CCN(c2ccccc2)C1=O,H37Rv,,,BACTEC,,inhibition,12.5 µg/mL,3%
CC[C@@H](/C=C/[C@@H](C)[C@H]1CCC2C34C=CC5(C[C@@H](O)CC[C@]5(C)C3CC[C@@]21C)OO4)C(C)C,,,,,,MIC,,2.5 µg/mL
CC(=O)N=C1N(/C=C2/C(=O)Oc3ccccc3C2=O)C(=O)/C(=C\c2ccco2)N1C,H37Rv,,,BACTEC,,MIC bound,,>12.5 µg/mL
CCCCS(=O)(=O)Nc1ccc2[nH]c(C(=O)NCC(C)C)c(C)c2c1,H37Rv,,,resazurin,,MIC90,,12.5 µM
COc1ccc2c(c1)[n+](=O)c(C(=O)CC(=O)C(=O)Nc1cccc(Cl)c1C)c(C)n2[O-],H37Rv,,,BACTEC,,inhibition,12.5 µg/mL,27%
O=c1ccc2c(-c3ccccc3)cc(N3CCN(c4ccccc4)CC3)nc2[nH]1,H37Rv,,,,,inhibition,6.25 µg/mL,32%

For reference, 4 entries again:

COc1nc2ccccc2cc1/C=N/NC(=O)c1ccncc1 ; strain or isolate: H37Rv ; method: resazurin ; endpoint: MIC ; result: 6.25 µg/mL
O=c1ccc2c(-c3ccccc3)cc(N3CCN(c4ccccc4)CC3)nc2[nH]1 ; strain or isolate: H37Rv ; endpoint: inhibition ; dose: 6.25 µg/mL ; result: 32%
CC(=O)c1ccccc1NNC(=O)N1CCN(c2nc(N3CCN(c4ccccc4)CC3)c3ccccc3n2)CC1 ; strain or isolate: H37Rv ; method: agar / visual reading ; endpoint: inhibition ; dose: 6.25 µg/mL ; result: 99%
C=C(NC(=O)C(=C)NC(=O)c1csc(C2=N[C@@H]3c4csc(n4)[C@H]4NC(=O)c5csc(n5)[C@H]([C@](C)(O)[C@@H](C)O)NC(=O)C5CSC(=N5)/C(=C/C)NC(=O)[C@H]([C@@H](C)O)NC(=O)c5csc(n5)[C@]3(CC2)NC(=O)C(C)NC(=O)C(=C)NC(=O)C(C)NC(=O)C(C(C)CC)NC2C=Cc3c([C@H](C)O)cc(nc3[C@H]2O)C(=O)O[C@@H]4C)n1)C(N)=O ; strain or isolate: H37Rv ; method: BACTEC ; endpoint: inhibition ; dose: 128 µg/mL ; result: 97%